The numbers were not newly measured in patent US20260382535A1, “DELIVERY DEVICES FOR ANTI-HIV COMPOUNDS” (published 2026), which cites them from elsewhere.

The conditions of data set [1]: human.
Another data set concerns reverse transcriptase. Particulars: background.
For a further data set, the system named is HIV-1. The settings on record: 0.1 nM plasma concentration target.

Structures are written as SMILES. Read-outs that look alike come from different tables or passages of the source.

As to `C#C[C@]1(CO)O[C@@H](n2cnc3c(N)nc(F)nc32)C[C@@H]1O`, the clearance in humans result in data set [1] is listed as “extended clearance in humans”. In data set [1] (listed as Islatravir), the clearance in humans result was “slow human clearance”. Further, in the data set on reverse transcriptase, the barrier to resistance result is listed as “high barrier to resistance” and the potency result was “high potency”. The “reduction in plasma HIV1-RNA” value in the data set on HIV-1 is listed as “greater than a one-log reduction in plasma HIV1-RNA”.
